Measured values from several laboratories, pooled; numbers as filed in NIAID ChemDB.

Shared fields: whole-cell or culture tests; agent: HIV-1; method: cytopathic effect; endpoint: inhibition

Percent inhibition refers to the dose given; in toxicity tests it is the harm to the cells.

| SMILES | strain | cells | conditions | tested at | result |
|---|---|---|---|---|---|
| CC(c1ccccc1)N1CC[C@H](O)[C@@H](O)C1 | BRU | CEM + CEM-SS | - | 100 µg/mL | 5.2% |
| CC1=C(CCC(=O)O)c2cc3nc(cc4[nH]c(cc4C)cc4[nH]c(cc1n2)cc4C)C(C)=C3CCC(=O)O | LAV | MT-4 | - | 10 µg/mL | 97% |
| Nc1ccn([C@H]2C=C[C@@H](CO)O2)c(=O)n1 | IIIB | ATH8 | - | 0.1 µM | 40% |
| [C-]#[N+][C@H]1C[C@H](n2cc(C)c(=O)[nH]c2=O)O[C@@H]1CO | LAV | CEM | - | 100 µM | 0% |
| CCOC(=O)CCCCCCCCCC(=O)O | - | CEM | - | 1 µg/mL | 27% |
| CC1=C[C@H](n2cc(C)c(=O)[nH]c2=O)O[C@@H]1CO | - | MT-4 | - | 500 µg/mL | 0% |
| Nc1nc(Cl)c2nnn([C@@H]3C[C@H](CO)[C@H](O)[C@@H]3O)c2n1 | - | CEM-V/MT-2 + CEM | - | 125 µg/mL | 0% |
| COc1ccc(/C=N/N=C(\N)NO)c(OC)c1.Cc1ccc(S(=O)(=O)O)cc1 | IIIB | CEM | - | 10 µg/mL | 0% |
| O[C@H]1CCN(Cc2ccccc2)C[C@@H]1O | BRU | CEM + CEM-SS | - | 100 µg/mL | 2.3% |
| C=C(C)[C@@H]1CC[C@]2(C(=O)O)CC[C@]3(C)C(CCC4[C@@]5(C)CC[C@H](OC(=O)CN(OC)C6C[C@H](O)[C@H](O)[C@@H](C)O6)C(C)(C)C5CC[C@]43C)C12 | IIIB | - | - | 10 µM | 12% |
| CCNC(=O)CCCCCCCCCC(=O)O | - | CEM | - | 10 µg/mL | 0% |
| C=C(C)[C@@H]1CC[C@]2(C(=O)O)CC[C@]3(C)C(CCC4[C@@]5(C)CC[C@H](OC(=O)CN(OC)C6OC[C@@H](O)[C@@H](O)[C@@H]6O)C(C)(C)C5CC[C@]43C)C12 | IIIB | - | - | 10 µM | 12% |
| CCC1=C(C)C2=NC1=CC1=C(C)C3=C(O)CC(=C4N=C(C=c5[nH]c(c(CC)c5C)=C2)C(C)=C4CCC(=O)O)C3=N1 | LAV | MT-4 | - | 10 µg/mL | 97% |
| CCCCCCCCCCCC(=O)CC(=O)O | - | CEM | - | 10 µg/mL | 7% |
| CC1(C)[C@@H](O[C@H]2O[C@H](C(=O)O)[C@@H](O)[C@H](O)[C@H]2O[C@@H]2O[C@H](C(=O)O)[C@@H](O)[C@H](O)[C@H]2O)CC[C@]2(C)[C@H]3C(=O)C=C4[C@@H]5C[C@@](C)(C(=O)O)CC[C@]5(C)CC[C@@]4(C)[C@]3(C)CC[C@@H]12 | IIIB | MOLT-4 | 3 d | 1200 µM | 15.7% |
| Nc1nc(N)c2nnn([C@@H]3C[C@H](CO)[C@H](O)[C@@H]3O)c2n1 | - | CEM-V/MT-2 + CEM | - | 62.5 µg/mL | 0% |
| O=C(O)CCCCCCCCCCCCn1nccn1 | - | CEM | - | 1 µg/mL | 12% |
| CCC1=C(C)c2cc3nc(cc4cc(C)c(cc5[nH]c(cc1n2)c(C)c5CC)[nH]4)C(CCC(=O)O)=C3C | LAV | MT-4 | - | 10 µg/mL | 97% |
| COc1ccc(/C=N/N=C(/N)NO)cc1OC | IIIB | CEM | - | 10 µg/mL | 33% |
| CC1C[C@H](O)[C@@H](O)CN1Cc1ccccc1 | BRU | CEM + CEM-SS | - | 10 µg/mL | 55% |
| N/C(=N\N=C\c1cccc(F)c1)NO | IIIB | CEM | - | 10 µg/mL | 18% |
| C=C(C)[C@@H]1CC[C@]2(C(=O)O)CC[C@]3(C)C(CCC4[C@@]5(C)CC[C@H](OC(=O)CN(OC)[C@H]6O[C@@H](CO)[C@H](O)[C@H](O)[C@@H]6O)C(C)(C)C5CC[C@]43C)C12 | IIIB | - | - | 10 µM | 28% |
| Nc1ncnc2c1ncn2C1CC(CO)C1 | IIIB | ATH8 | - | 20 µM | 0% |
| C=Cc1c(C)c2cc3nc(c(CC(=O)O)c4nc(cc5[nH]c(cc1[nH]2)c(C)c5CC)C(C)=C4C(=O)O)C(CCC(=O)O)=C3C | LAV | MT-4 | - | 10 µg/mL | 97% |
| COc1ccc(/C=N/N=C(\N)NO)c(Cl)c1O.Cc1ccc(S(=O)(=O)O)cc1 | IIIB | CEM | - | 10 µg/mL | 96% |
| C=C(C)[C@@H]1CC[C@]2(C(=O)O)CC[C@]3(C)C(CCC4[C@@]5(C)CC[C@H](OC(=O)CN(OC)C6OC[C@@H](O)[C@@H](O)[C@H]6O)C(C)(C)C5CC[C@]43C)C12 | IIIB | - | - | 10 µM | 13% |
| Cc1cn([C@H]2CC[C@@H](CO)O2)c(=O)n(N)c1=O | LAV | CEM | - | 100 µM | 0% |
| C=Cc1c(C)c2cc3[nH]c(cc4nc(cc5nc(cc1[nH]2)C(C)=C5CCC(=O)OC)C(CCC(=O)OC)=C4C)c(C)c3C=C | LAV | MT-4 | - | 10 µg/mL | 97% |
| Nc1nc(N)c2ncn([C@@H]3C[C@H](CO)[C@@H](O)[C@@H]3O)c2n1 | - | CEM-V/MT-2 + CEM | - | 125 µg/mL | 0% |
| C[C@]1(O)CCN(Cc2ccccc2)C[C@@H]1O | BRU | CEM + CEM-SS | - | 100 µg/mL | 4.3% |
| C=C(C)[C@@H]1CC[C@]2(C(=O)O)CC[C@]3(C)C(CCC4[C@@]5(C)CC[C@H](OC(=O)CN(OC)[C@H]6OC[C@H](O)[C@@H](O)[C@@H]6O)C(C)(C)C5CC[C@]43C)C12 | IIIB | - | - | 10 µM | 43% |
| O=C1c2ccccc2C(=O)c2c1cc(S(=O)(=O)O)c(O)c2O | IIIB | SupT1 + Sup-T1 | - | 50 µg/mL | 0% |
| C=C(C)[C@@H]1CC[C@]2(C(=O)O)CC[C@]3(C)C(CCC4[C@@]5(C)CC[C@H](OC(=O)CN(OC)C6O[C@@H](CO)[C@@H](O)[C@@H](O)[C@@H]6O)C(C)(C)C5CC[C@]43C)C12 | IIIB | - | - | 10 µM | 6% |
| CCCN1CC[C@H](O)[C@@H](O)C1 | BRU | CEM + CEM-SS | - | 10 µg/mL | 10.3% |
| CCc1c(C)c2cc3[nH]c(cc4nc(c(C)c5nc(cc1[nH]2)C(C)=C5)C(CCC(=O)O)=C4C)c(C)c3CC | LAV | MT-4 | - | 10 µg/mL | 97% |
| COC(=O)N[C@H]1C[C@H](n2cc(C)c(=O)[nH]c2=O)O[C@@H]1CO | LAV | CEM | - | 100 µM | 0% |
| COc1ccc(/C=N/N=C(\N)NO)cc1F | IIIB | CEM | - | 10 µg/mL | 61% |
| CCC(=O)Nc1ccn([C@H]2CC[C@@H](COC(=O)CC)O2)c(=O)n1 | - | - | - | 25 µM | 0% |
| CC(=O)NCCCCCCCCCCC(=O)O | - | CEM | - | 1 µg/mL | 6% |
| C=C(C)[C@@H]1CC[C@]2(C(=O)O)CC[C@]3(C)C(CCC4[C@@]5(C)CC[C@H](OC(=O)CN(OC)C6O[C@H](CO)[C@@H](O)[C@H](O)[C@H]6O)C(C)(C)C5CC[C@]43C)C12 | IIIB | - | - | 10 µM | 2% |
| O=C(O)CCC(CCC(=O)O)(CCC(=O)O)NC(=O)CCC(CCC(=O)NC(CCC(=O)O)(CCC(=O)O)CCC(=O)O)(CCC(=O)NC(CCC(=O)O)(CCC(=O)O)CCC(=O)O)NC(=O)CCCOC(=O)C1(C(=O)OCCCC(=O)NC(CCC(=O)NC(CCC(=O)O)(CCC(=O)O)CCC(=O)O)(CCC(=O)NC(CCC(=O)O)(CCC(=O)O)CCC(=O)O)CCC(=O)NC(CCC(=O)O)(CCC(=O)O)CCC(=O)O)C2c3cc4c5c6c3-c3c(cc7c8c3C6C3c6c-5c(cc5ccc9cc(c-8c3c9c65)C7)C4)C21 | LAI | PBMC | - | 1.8 µM | 90% |
| COc1cc(/C=N/N=C(\N)NO)c(Cl)cc1O.Cc1ccc(S(=O)(=O)O)cc1 | IIIB | CEM | - | 32 µg/mL | 23.8% |
| CC(C)(C)C(=O)Nc1ccn([C@H]2CC[C@@H](CO)O2)c(=O)n1 | - | - | - | 100 µM | 42% |

For reference, 4 entries again:

SMILES,strain,cells,conditions,tested at,result
CC(c1ccccc1)N1CC[C@H](O)[C@@H](O)C1,BRU,CEM + CEM-SS,-,100 µg/mL,5.2%
CCNC(=O)CCCCCCCCCC(=O)O,-,CEM,-,10 µg/mL,0%
Nc1nc(N)c2nnn([C@@H]3C[C@H](CO)[C@H](O)[C@@H]3O)c2n1,-,CEM-V/MT-2 + CEM,-,62.5 µg/mL,0%
C[C@]1(O)CCN(Cc2ccccc2)C[C@@H]1O,BRU,CEM + CEM-SS,-,100 µg/mL,4.3%

An empty or dashed field is not shown. Rows are shuffled and stem from different studies.